Reference: PubChem BioAssay AID504770 (ICCB-Longwood Screening Facility, Harvard Medical School, 2011)
The list shows a part of the results, in another mix than the full data. Calls of active or inactive are those of the source. Cut-off read from the data, not from the text of the source: active = z-score below about -2 (passing the limit was not always enough); inactive = the rest.

experiment: PubChem AID 504770; conditions: E. coli YBA685 rctB-dependent plasmid, OD600 growth, 3 h; stronger effect = lower value

Compound | z-score
C=CCN1CCN(CCOC(=O)C(O)(c2ccccc2)c2ccccc2)CC1 | inactive: 1.45
CC(=O)OC1(C#N)CN2CCC1CC2 (configuration not stated) | inactive: -0.4
Nc1nonc1OCc1nonc1COc1nonc1N | inactive: -0.6
O=P(Nc1nccs1)(c1ccccc1)c1ccccc1 | inactive: -0.2
CC(=O)OC1CN2CCC1C(c1ccccc1)C2 (configuration not stated) | inactive: -0.7
Cc1ccccc1NP(C)(=O)Nc1ccccc1C | inactive: -0.25
O=P1(Nc2nc3ccc(Cl)cc3s2)COc2ccccc2O1 (configuration not stated) | inactive: -0.4
Cc1cc(NC2=NC3C(C(=O)N(C)C(=O)N3C)N2C)n(-c2ccccc2)n1 (configuration not stated) | inactive: 0.3
O=P1(Nc2nncs2)C=C(c2ccccc2)SC(c2ccccc2)=C1 | inactive: -0.2
O=C(OCCN1CCN(CCOCc2ccccc2)CC1)C(O)(c1ccccc1)c1ccccc1 | inactive: 0.8
O=C(OCC1CN(Cc2ccccc2)CCO1)C(O)(c1ccccc1)c1ccccc1 (configuration not stated) | inactive: -0.25
COc1cc2c(cc1NP(C)(=O)Oc1ccccc1)oc1ccccc12 (configuration not stated) | inactive: -0.45
O=C(OC1CN2CCC1CC2)c1ccccc1 (configuration not stated) | inactive: 0.1
COC(=O)c1cc2c(s1)N=C(c1ccccc1)N(C)P2(=O)N1CCOCC1 (configuration not stated) | inactive: 1.1
O=C(OC1/C(=C/c2ccccc2F)N2CCC1CC2)c1ccccc1 (configuration not stated) | inactive: -1.05
CC1CCC(C(C)C)C(OP(=O)(Nc2nccs2)c2ccccc2)C1 (configuration not stated) | inactive: -0.3
O=C(COC(=O)C(O)(c1ccccc1)c1ccccc1)N1CCCCC1 | inactive: 0.15
CCOP(=Nc1nc2ccccc2n2nnnc12)(OCC)OCC | inactive: -0.75
CCOP(OCC)N1CCOCC1 | inactive: 0.9

Compound | z-score
CP(=O)(Nc1ccccn1)Oc1ccccc1 (configuration not stated) | inactive: -0.4
CCc1nc2c(n1)c1c(non1O)c1c2no[n+]1[O-] | inactive: -0.7
CCc1ccc(OP(C)(=O)Nc2cccnc2)cc1 (configuration not stated) | inactive: 0.85
OCCSCCO | inactive: -0.1
CP(=O)(Nc1ccc(Cl)cc1)Oc1ccc(F)cc1 (configuration not stated) | inactive: 0
O=C(O)CCC(=O)N=S(c1ccccc1)c1ccccc1.O=[N+]([O-])c1cc([N+](=O)[O-])c(O)c([N+](=O)[O-])c1 | inactive: 1.35
CP(=O)(Nc1ccc(Cl)cc1)Oc1ccccc1 (configuration not stated) | inactive: -0.85
COc1ccccc1OP(C)(=O)Nc1ccccc1 (configuration not stated) | inactive: 0.15
CCN1C(=O)N(c2ccccc2)P(=S)(OC)c2cc3c(cc21)OCCO3 (configuration not stated) | inactive: -1
COP1(=S)c2c(C)nn(-c3ccccc3)c2N=C(c2ccccc2)N1C1CC1 (configuration not stated) | inactive: -0.3
CP(=O)(NC(=O)Nc1ccccc1)Oc1ccccc1 (configuration not stated) | inactive: 1.25
CCOC(=O)c1ccc(NP(C)(=O)Oc2ccc(OC)cc2)cc1 (configuration not stated) | inactive: 1.3
Cc1cccc(NP(C)(=O)Oc2ccccc2)c1 (configuration not stated) | inactive: 0.15
CCn1cccc/c1=N\P1(=S)OCCO1 | inactive: -0.2
CN(C)P1(=O)Nc2ccccc2S1 (configuration not stated) | inactive: -0.2
O=P1(Nc2nccs2)CC=CC1 | inactive: 0.85
O=C(OC1CN2CCC1CC2)C12CC3CC(CC(C3)C1)C2 (configuration not stated) | inactive: -0.3
CC1=Nc2ccc(C(F)(F)F)cc2C1(C)C | inactive: 1.35
O=C(O)C1(O)c2ccccc2-c2ccccc21 | inactive: -0.15

Compound | z-score
Cc1cc(C)cc(OP(C)(=O)NCc2ccccc2)c1 (configuration not stated) | inactive: 0.35
Nc1nonc1OCCOc1nonc1N | inactive: -0.8
COP1(=S)N=C2c3ccccc3CN2c2cc(N(C)C)ccc21 (configuration not stated) | inactive: -2
NC(=O)COC(=O)C1(O)c2ccccc2-c2ccccc21 | inactive: -0.75
O=P1(Nc2nc3ccc(Cl)cc3s2)COc2ccccc2OC1 | inactive: -0.8
CCOP1(=S)c2c(C)nn(CCC#N)c2N=C(c2ccc(F)cc2)N1C (configuration not stated) | inactive: 0.75
CC1(C)Nc2ccccc2OP1(=O)c1ccccc1 (configuration not stated) | inactive: -0.3
O=C(OC1CN2CCC1CC2)c1ccc(Cl)cc1 (configuration not stated) | inactive: -0.25
Cc1cccc(OCC(=O)OC2CN3CCC2CC3)c1 (configuration not stated) | inactive: -0.5
COc1cc(-n2cnnn2)ccc1-n1cnnn1 | inactive: 1.4
O=P1(Nc2ccccn2)COc2ccccc2OC1 | inactive: -0.25
Nc1nonc1-c1no[n+]([O-])c1-c1nonc1N | inactive: 2.05
Cc1ccc(C(=O)OC2CN3CCC2CC3)cc1 (configuration not stated) | inactive: -0.8
Cc1nn(-c2ccccc2)c2c1P(=O)(N1CCOCC1)N(C)C(c1ccccc1)=N2 (configuration not stated) | inactive: -0.9
Cc1nn(CCC#N)c2c1P(=O)(Nc1ccccc1Cl)N(C)C(c1ccc(F)cc1)=N2 (configuration not stated) | inactive: -1.15
CP(=O)(N1CCOCC1)N1CCOCC1 | inactive: 0.45
Cc1cc(C)cc(OP(C)(=O)Nc2ccc(OC(C)C)cc2)c1 (configuration not stated) | inactive: 0.6
CCSP(=O)(c1ccccc1)c1ccccc1 | inactive: 1.2
CC1(C)COP(=S)(N(C2=NCCC2)c2ccccc2)OC1 | inactive: 1.5
